Results on three compounds are retold here after patent US11072575B1, “Method of preparing a cinnamyl alcohol retinoic acid ester with antioxidant and antibacterial activities” (priority 2020, dated 2021).

The series in a line: DPPH radical scavenging activity assay. Particulars: 517 nm; for Absorbance Ai (sample solution + DPPH solution): 30 min. From the text:
In the DPPH molecule, due to the presence of multiple electron-withdrawing —NO2 and large π bonds of the benzene ring, nitrogen free radical is stabilized. Its methanol solution is purple and has a maximum absorption peak at 517 nm. After the addition of an antioxidant, DPPH captures an electron to be paired with the free electron, and the purple fades and turns into a yellow substance. The absorption at 517 nm disappears, and the degree of fading is quantitatively related to the number of electrons it captures. Based on this principle, a spectrophotometer is used to detect the change of the absorbance of the DPPH radical and the sample solution, and the ability of the sample to provide hydrogen atoms and scavenge free radicals can be measured. […] Vc (positive control), cinnamyl alcohol retinoic acid ester (sample), cinnamyl alcohol (control) and retinoic acid (control). The sample solution was subjected to gradient dilution with toluene, and three sets of controls were separately dissolved in a test tube with a certain amount of toluene to prepare the same concentration gradient as the sample. [table] […] Clearance calculation: Clearance Rate (%)=[1−(Ai−Aj)/Ao]*100%
A general note: The DPPH test is a chemical assay of radical scavenging.

For the compound `CC1=C(/C=C/C(C)=C/C=C/C(C)=C/C(=O)OC/C=C/c2ccccc2)C(C)(C)CCC1` [Cinnamyl alcohol retinoic acid ester, (2E,4E,6E,8E)-cinnamyl 3,7-dimethyl-9-(2,6,6-trimethylcyclohex-1-en-1-yl)nona-2,4,6,8-tetraenoate], the “Absorbance Aj (sample solution + toluene)” value (from here on “Absorbance Aj”) is 0.049 (1.76 ppm); 0.050 (8.80 ppm); 0.044 (21.12 ppm); 0.049 (42.24 ppm); 0.052 (79.20 ppm); 0.059 (112.64 ppm). For the same compound, the “Absorbance Aj” value (281.60 ppm) is recorded as 0.047, the “Absorbance Aj” value (492.80 ppm) came to 0.053, the “Absorbance Aj” value (792.00 ppm) was found to be 0.055 and the “Absorbance Aj” value (915.20 ppm) was 0.046. In addition, the “Absorbance Ai (sample solution + DPPH solution)” value (“Absorbance Ai” below) by setting is: (1.76 ppm) 0.826; (8.80 ppm) 0.788; (21.12 ppm) 0.653; (42.24 ppm) 0.567; (79.20 ppm) 0.333; (112.64 ppm) 0.279. Further, the “Absorbance Ai” value stood at 0.336 (281.60 ppm), 0.204 (492.80 ppm), 0.138 (792.00 ppm) and 0.087 (915.20 ppm).
As to `O=C1O[C@H]([C@@H](O)CO)C(O)=C1O` [Vc], the “Absorbance Aj” value was determined as 0.068 (1.76 ppm); 0.061 (8.80 ppm); 0.050 (21.12 ppm); 0.054 (42.24 ppm); 0.069 (79.20 ppm); 0.057 (112.64 ppm). Moreover, the “Absorbance Aj” value (281.60 ppm) is recorded as 0.062, the “Absorbance Aj” value (492.80 ppm) is on record as 0.062, the “Absorbance Aj” value (792.00 ppm) came out at 0.066 and the “Absorbance Aj” value (915.20 ppm) amounted to 0.059. The “Absorbance Ai” value worked out at 0.718 (1.76 ppm); 0.624 (8.80 ppm); 0.222 (21.12 ppm); 0.142 (42.24 ppm); 0.091 (79.20 ppm); 0.078 (112.64 ppm). Further, the “Absorbance Ai” value by setting is: (281.60 ppm) 0.076; (492.80 ppm) 0.070; (792.00 ppm) 0.074; (915.20 ppm) 0.065.
Take `OCC=Cc1ccccc1` [Cinnamyl alcohol, cinnamyl alcohol]: the “Absorbance Aj” value (1.76 ppm) is given as 0.049; the “Absorbance Aj” value (8.80 ppm) is 0.048; the “Absorbance Aj” value (21.12 ppm) is reported as 0.039; the “Absorbance Aj” value (42.24 ppm) stood at 0.045; the “Absorbance Aj” value (79.20 ppm) was found to be 0.059; the “Absorbance Aj” value (112.64 ppm) is 0.054. Also, the “Absorbance Aj” value reads like this: (281.60 ppm) 0.045; (492.80 ppm) 0.047; (792.00 ppm) 0.034; (915.20 ppm) 0.039. Moreover, the “Absorbance Ai” value by setting is: (1.76 ppm) 0.881; (8.80 ppm) 0.870; (21.12 ppm) 0.773; (42.24 ppm) 0.709; (79.20 ppm) 0.614; (112.64 ppm) 0.550. The “Absorbance Ai” value by setting is: (281.60 ppm) 0.409; (492.80 ppm) 0.360; (792.00 ppm) 0.270; (915.20 ppm) 0.255.
